Assays:
[1] = rat axillary lymph nodes, 4 h post dose
[2] = tested on: human PBMCs
[3] = In vitro drug release in human plasma with or without esterase inhibitor PMSF; details: 37 °C
[4] = 24 h incubation at 10 ug/mL FTC, normalized to soluble protein
[5] = esterase-inhibited human plasma (5 mM PMSF)

poly(L-lysine succinylated) FTC prodrug [PLS-FTC]
FTC signal abundance (IR-MALDESI MSI) [1]: 158.0 ± 96.0 arbitrary units
frequency of detection [1]: 11.1 ± 2.2 % of sampling locations with measurable drug
FTC concentration in PBMCs [2, 4]: 40.6 ± 1.7 ng/mg protein
FTC-TP concentration in PBMCs [2, 4]: 52.7 ± 14.3 ng/mg protein
ratio of active metabolite to precursor, FTC-TP/FTC ([2]; human PBMCs, 24 h incubation): 1.3
first-order drug release half-life [3, 5]: 29 h
FTC released after 24 h incubation [3, 5]: 43%
FTC released after 24 h incubation ([3]; fresh human plasma): ~ 65%
first-order drug release half-life ([3]; human plasma): 15 h
